Where a chain is given by its changes, count along the chain named.
B1: TCN-537 (3194_D21) (antibody, V domains shown)
VH: QVQLQQWGSGLLKPSETLSLTCAVYGGSFRDDYWTWIRQPPGKGLEWIGEINHSGRTNYNPSLKSRVTISVDTSLKQFSLKVISVTAADTAVYYCARGTSHVSRYFDWLPPTNWFDPWGQGTQVTVSS
VL: DIVLTQSPGTLSLSPGERATLSCRASQSVSSSYLAWYQQKPGQAPRLVMYGAATRATGIPDRFSGSGSGPDFTLTISRLEPEDFAMYYCQQYGNSPITFGQGTRLEIK
B2: TCN-538 (3206_O17) (antibody, V domains shown)
VH: QITLKESGPTLVKPTQTLTLTCVFSGFSLSITGVRVGWIRQPPGKALEWLALISWDDEKHYSPSLQSRLTITKDTSKNQVVLTMTNLDPVDTATYYCARSTDRGHVLRYFGWMLPGDAFDVWGQGTMVTVSS
VL: DIVMTQSPDFLPVSLGERATINCKSSQRVLYSSNNKNYLAWYQLKPGQPPKLIIYWASTRESGVPDRFSGSGSGTEFTLTISSLQAEDVAVYYCQQYYSRPYTFGQGTKLEIK
B3: TCN-539 (5056_A08) (antibody, V domains shown)
VH: QVQLVESGGGVVQPGRSLRLSCAASEITFITYAMHWVRQAPGKGLEWVALISDDGSNKFYADSVKGRFTISRDNSKNTLYLQMNSLRAEDTAAYYCAREGVYFDSGTYRGYFDYWGQETLVTVSS
VL: EIVLTQSPATLSLSPGERATLSCRASQSVSSYLAWYQQKPGQAPRLLIYDASNRATGIPARFSGSGSGTDFTLTISSLEPEDFAVYYCQQRSHWPPITFGQGTRLEIK
B4: TCN-540 (5060_F05) (antibody, V domains shown)
VH: QVQLVQSGGGVVQPGRSLRLSCAASGFTFSSYAMHWVRQAPGKGLEWVAIISYDGNDQYYTDSVKGRFTISRDSSKVYLQMHRLRPEDTAVYYCAKEFETSGYFHGSFDYWGQGILVTVSS
VL: QSALTQPASVSGSPGQSITISCTGTSSDVGGYNYVSWYQQHPGKAPKLLIYEVTNWPSGVSNRFSGSKSGNTASLTISGLQAEDEADYYCSSYAGSSTWVFGGGTRVTVL
B5: TCN-542 (5079_A16) (antibody, V domains shown)
VH: QVQLQESGPGLVKPSQTLSLTCTVSGGSISSGNYYWNWVRQHPGKGLEWIGYIYYRGSTFYNPSLKSRVTISIDTSKNQFSLRLSSVTAADTAVYYCAKDTRSSLDNYQYGMDVWGQGTTVTVSS
VL: QTVVTQEPSLTVSPGGTVTLTCASSTGAVTSSYFPNWFQQKPGQAPRPLIYSTTIRHSWTPARFSGSLLGGKAALTLSGVQPEDEADYYCLLYSGGDPVAFGGGTKLTVL
B6: TCN-523 (5248_A17) (antibody, V domains shown)
VH: QVQLVQSGAEVKKPGSSVKVSCKASGGSFSNYAFSWVRQAPGQGLEWMGGTIPLLGTTNYAQKFQGRVTISADQFTSTAYMELGSLRSEDTAVYYCTRRKMTTAFDSWGQGTLVTVSS
VL: QPVLTQPPSASASLGASVTLTCTLSSAYSNYKVDWYQQRPGKGPRFVMRVGTGGIVGSKGDGIPDRFSVLGSGLNRYLTIKNIQEEDESDYHCGADHGSGSNFVSPYVFGGGTKLTVL
B7: TCN-544 (5082_A19) (antibody, V domains shown)
VH: QVQLQESGPGLVKPSETLSLTCTVSRGSIGHYFWSWIRQPPGKGLEWIGYISYSGSTKYNPSLRSRVTISVDTSKNQFSLNLNSVTATDTALYYCAREDYDILTGAGPGMEVWGQGTTVTVSS
VL: QSMLTQPPSASGTPGQRVTISCSGSSSNIGSNTVNWFKHLPGTAPKLLIYRNDLRPSGVPDRFSGSKSGTSASLAISGLQSEDEADYYCATWDDSLNGFYVFGTGTKVTVL
B8: TCN-545 (5082_I15) (antibody, V domains shown)
VH: QVQLQQWGAGLLKPSETLSLSCAVFGGSFSDYYWTWIRQPPGKGLEWIGEIKHSGRTNYNPSLESRVTISVDTSKNQFSLKLSSVTAADTAIYYCARGTDPDTEGYCRSGSCSAFDFWGQGTLVTVSS
VL: EIVLTQSPGTLSLSPGERATLSCRASHFVNYRSLAWYQQTPGQVPRLLIYGASTRATGIPDRFSGSGSGTDFTLTISRLEPEDFAVYFCQQYGGSPRYTFGQGTRLEIK
B9: TCN-546 (5089_L08) (antibody, V domains shown)
VH: QVQLQQWGAGLLKPSETLSLTCGVYGGSLSDYYWSWIRQPPGKGLEWIGEINHSGGTNYNPSLKRRVTISVDTSKKQFSLKMNSVTAADTAVYYCARGTDPDTEVYCRAGNCAAFDFWGQGTLVTVSS
VL: EIVLTQSPGTLSLSPGERATLSCRASHFVIGRAVAWYQQKPGQAPRLLIYGASSRATGIPDRFSGSGSGTDFTLTISRLETEDFAVFYCQHYGSSPRYAFGQGTKLEIK
B10: TCN-547 (5092_F11) (antibody, V domains shown)
VH: QVQLQESGPGLVKPSQTLSLTCTVSGDSISSVDHYWSWIRQHPVKGLEWIGFMYYSASTYYNPSLKSRVTISTDTSKNQFSLRLSSVTAADTAVYYCARGTCAGDCSLHYYYYGLDVWGQGRTVTVSS
VL: DIQMTQSPSSLSASVGDRVTITCRASQSISSYLNWYQHKPGKAPKVLMYAVSILQSGVPSRFSGSGSGADFTLTISSLQPEDFATYYCQQSYSSPLTFGGGTKVEIK
B11: TCN-548 (5092_P01) (antibody, V domains shown)
VH: QVQLQESGPGLVKPSETLSLTCTVSSGPMSDYYWSWIRQPPGKGLEWIGHVSVSHGGRTKSNPSVMSRVTISVETSKNQFSLKLTSVTAADTAVYYCARLNYYDRSGYHSPDGPSNNWFDPWGQGTLVTVSS
VL: DIVMTQSPDSLAVSLGERATINCKSSQSVLYSSNNKNYLAWYQQKPGQPPKLLIYWASTRESGVPDRISGSGSGADFTLTISSLQAEDVAVYYCQQYFATPRTFGQGTKVEIK
B12: TCN-549 (5092_P04) (antibody, V domains shown)
VH: QVQLVQSGAEVKKPGASVKVSCKASGYTFTGYYMHWVRQAPGQGLEWMGWINPNSGDTNYAQKFQGRVTMTRDTSITTAYMELSSLRSDDTAVYYCARDSPYSSSWSFFDYWGQGPLVTVSS
VL: B11 VL with N37S, Y38H, I68F, A75T, T80I, F98Y, A99F, T100S, R102L, Q106G
B13: TCN-550 (5096_F06) (antibody, V domains shown)
VH: QVQLQESGPGLVKPSETLSLTCTVSGASINSHYWSWIRQPPGKGLEWIGYVYYSGSTTYNPSLKSRVTLSVDTSKNQFSLNLSSVTAADTAFYYCARHPYDVLTGSGDWFDPWGQGTLVTVSS
VL: SYVLTQAPSVSVAPGQTARITCGGNAIGSKKVHWYQHKAGQAPVLVVYDDTDRPSGIPERFSGSNSWSTATLTINRVEAGDEADYYCQVWDFTIDHVVFGGGTKLTVL
B14: TCN-551 (5243_D01) (antibody, V domains shown)
VH: EVQLVQSGSEVKKPGESLKISCKGSGYSFSNYWIGWVRHMPGKGLEWMGIIYPGDSDTRYSPSFQGQVTMSADKSSSTVYLQWSSLKASDTAIYYCARRGGHSFGYGSGGDTHSEFDSWGQGTLVTVSS
VL: QSVLTQSPSVSAAPGQKVTISCSGSDSNIGDYFVCWYQHLPGKPPQLLIYENNKRPSGIPDRFSGSKSGTSATLGITGIQTGDEADYYCATWDGSLSAWVFGGGTKLTVL

Tests used:
[1] = biological target: hemagglutinin (HA) of influenza A/Solomon Islands/3/06 (H1N1) on whole virions (Influenza A virus A/Solomon …)
[2] = biological target: T1, hemagglutinin (HA) of influenza A/Wisconsin/67/05 (H3N2) on whole virions (Influenza A virus …); experiment: ELISA; BCC supernatant on coated inactivated whole virions
T1 construct: whole, on cells

Binder	ELISA virus binding (OD450) [1]	ELISA virus binding (OD450) [2]
B1	3.24 OD450	0.06 OD450
B2	3.47 OD450	0.07 OD450
B3	0.06 OD450	2.85 OD450
B4	0.07 OD450	3.65 OD450
B5	3.66 OD450	3.13 OD450
B6	3.47 OD450	0.08 OD450
B7	0.32 OD450	2.71 OD450
B8	3.32 OD450	0.47 OD450
B9	1.95 OD450	3.69 OD450
B10	0.06 OD450	3.68 OD450
B11	0.09 OD450	3.62 OD450
B12	0.09 OD450	3.58 OD450
B13	0.06 OD450	3.65 OD450
B14	3.35 OD450	0.07 OD450

From patent US20150086555A1 (THERACLONE SCIENCES, published 2015)
